Anti-infective test results gathered from many reports (values: NIAID ChemDB through PubChem).

All rows: target-level tests

Blank or dashed fields: not listed here. Lines come from different laboratories, so protocols vary. Percent inhibition refers to the dose given; in toxicity tests it is the harm to the cells. ICn is the concentration giving n% inhibition.

structure	tested at	target	endpoint	species	result
O=C1C=CC(=O)c2c(O)cccc21		Protease	IC50	Herpes simplex virus 1	9.3 µM
O=P(O)(O)OP(=O)(O)O		DNA polymerase	IC50	Herpes simplex virus 1	>500 µM
CC(C)CC(=O)NC[C@H]1O[C@@H](n2cc(I)c(=O)[nH]c2=O)C[C@@H]1OC(=O)CC(C)C		Thymidine kinase	IC50	Herpes simplex virus 1	0.23 µM
CC(C(=O)O)P(=O)(O)O		DNA polymerase	IC50	Herpes simplex virus 2	550 µM
O=C(NC[C@H]1O[C@@H](n2cc(I)c(=O)[nH]c2=O)C[C@@H]1O)c1ccccc1		Thymidine kinase	IC50	Herpes simplex virus 1	>0.05 µM
O=C(P(=O)(O)O)P(=O)(O)O		DNA polymerase	IC50	Herpes simplex virus 2	27 µM
O=C(O)C(Cl)(Cl)P(=O)(O)O	100 µM	DNA polymerase	inhibition	Herpes simplex virus 2	0%
Oc1ccc2ccccc2c1O		Protease	IC50	Herpes simplex virus 1	28.8 µM
Nc1ncnc2c1ccn2[C@@H]1O[C@H](COP(=O)(O)OP(=O)(O)OP(=O)(O)O)[C@@H](O)[C@@H]1O		DNA polymerase	Ki	Herpes simplex virus 2	5 µM
Oc1ccc2ccc(O)cc2c1		Protease	IC50	Herpes simplex virus 1	>100 µM
O=C(O)C(F)(Cl)P(=O)(O)O		DNA polymerase	IC50	Herpes simplex virus 2	>100 µM
CS(=O)(=O)NC[C@H]1O[C@@H](n2cc(I)c(=O)[nH]c2=O)C[C@@H]1O		Thymidine kinase	IC50	Herpes simplex virus 1	0.5 µM
CC(F)(C(=O)O)P(=O)(O)O	100 µM	DNA polymerase	inhibition	Herpes simplex virus 1	0%
CC(=O)NC[C@H]1O[C@@H](n2ccc(=O)[nH]c2=O)C[C@@H]1OC(C)=O		Thymidine kinase	IC50	Herpes simplex virus 1	5 µM
O=C(O)C(F)(F)P(=O)(O)O		DNA polymerase	IC50	Herpes simplex virus 2	30 µM
CC(=O)NC[C@H]1O[C@@H](n2cc(C)c(=O)[nH]c2=O)C[C@@H]1OC(C)=O		Thymidine kinase	IC50	Herpes simplex virus 1	13.2 µM

A second listing of 2 rows from above:

structure | tested at | target | endpoint | species | result
CC(F)(C(=O)O)P(=O)(O)O | 100 µM | DNA polymerase | inhibition | Herpes simplex virus 1 | 0%
Oc1ccc2ccccc2c1O |  | Protease | IC50 | Herpes simplex virus 1 | 28.8 µM